Measurements reported in PubChem BioAssay AID504761 (Drosophila RNAi Screening Center, 2011)
Purpose: 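Genome-wide fly cell screen for genes dengue virus requires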 (primary screen). System: D.Mel-2 cells from Drosophila. Reagents: long dsRNA against Drosophila genes. Conditions: infection with dengue virus type 2; dose and infection time not stated. Detection: 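Cells stained for dengue envelope protein and imaged; percent of infected cells per well on duplicate plates, ranked by infection, with stained nuclei counted for cell number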. Reading the numbers: infection score: higher = more virus-infected cells; cell count: higher = more cells in the well. Hit rule: 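Low infection ranks in the two replicates (chance level up to 0.065) followed by a retest with a 1.5-fold or larger significant decrease, p below 0.05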. Meaning of the calls: active = confirmed: knock-down lowers infection; inactive = not picked or not confirmed.
In all, the deposit lists about 22,000 reagents; this is an unselected part of those that have a named target and a result. Over the whole deposit, 116 (0.52%) were called active. 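Calls depend on retest data that are not deposited; infection was ranked per plate without normalising between plates; the unit of the infection score is not given.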 The raw values are shown without normalisation. The numbers tell different reagents against one gene apart. Names joined by + are all predicted targets of the reagent. Not given: the amount of reagent, the time to read-out.

gene,reagent,"infection score, replicate 1","infection score, replicate 2","cell count, replicate 1","cell count, replicate 2",activity call
Rpt6,1,10,1.58,6260,6081,inactive
Rpt6,2,18.1,8.2,5866,5686,inactive
spag,1,9.75,8.41,5693,6135,inactive
cact,1,14.4,9.49,5024,4858,inactive
cact,2,6.07,7.87,4138,3738,inactive
Kaz1-ORFB + Kaz1-ORFA,1,7.08,18,6089,4622,inactive
CG33521,1,4.67,3.02,6099,5491,inactive
CG33521,2,3.42,13.6,6939,5906,inactive
CG33521,3,17.2,16,4447,5762,inactive
Sec61alpha,1,0.39,3.57,6189,2861,inactive
CG12995,1,14.9,2.22,1550,6387,inactive
CG12995,2,2.91,2.83,5877,6936,inactive
CG13615,1,13,2.67,5145,6885,inactive
CG13615,2,16.2,15.8,4828,5710,inactive
CG3732,1,10.3,21.9,6616,4920,inactive
CG3732,2,7.67,2.25,6521,6141,inactive
CG4734,1,21.2,26.3,4650,4514,inactive
CG4734,2,5.82,3.24,6565,6482,inactive
CG12491 + CG34105,1,1.22,0.67,6162,5482,inactive
CG12491 + CG34105,2,4.49,7.46,6500,6796,inactive
CG12491 + CG34105,3,3.23,2.14,6092,5983,inactive
insv,1,7.39,6.29,6748,6873,inactive
insv,2,5.93,2.98,2647,1409,inactive
verm,1,2.14,21.5,6410,5954,inactive
verm,2,2.93,5.67,6423,6087,inactive
CG14218,1,1.86,0.4,6603,5778,inactive
CG14218,2,4.94,3.94,6214,6389,inactive
puml,1,7.21,17.7,2206,4290,inactive
EndoGI,1,20.2,2.85,4876,6775,inactive
Vhl,1,17.3,7.96,5512,3178,inactive
Vhl,2,15.3,6.33,5266,6331,inactive
eEF1alpha1,1,3.54,3.71,4067,4203,inactive
eEF1alpha1,2,0.77,2.13,4526,4656,inactive

Continued (2 carried over from the part before).
gene,reagent,"infection score, replicate 1","infection score, replicate 2","cell count, replicate 1","cell count, replicate 2",activity call
eEF1alpha1,1,3.54,3.71,4067,4203,inactive
eEF1alpha1,2,0.77,2.13,4526,4656,inactive
Gr33a,1,3.49,1.03,6730,6514,inactive
Gbp3,1,0.34,1.57,6545,509,inactive
Lis-1,1,25.2,28.2,6153,5987,inactive
CG3294,1,13.4,,4343,505,inactive
CG3294,2,5.2,1.25,6572,5981,inactive
tst,1,3.66,3.56,6253,6494,inactive
PolD2,1,42.3,13.3,4580,5394,inactive
aspr,1,4.63,0.72,6156,5971,inactive
aspr,2,2.41,0.55,5800,6178,inactive
CG6271,1,7.99,1.63,5930,6864,inactive
CG6271,2,0.58,7.78,6041,6351,inactive
Cpr56F,1,1.39,0.54,5892,6672,inactive
Cpr56F,2,22.9,4.68,5036,6622,inactive
CG30457,1,2.64,2.28,5713,6456,inactive
CG30457,2,11.8,,5235,386,inactive
CG5390,1,5.75,2.02,6365,6838,inactive
CG5390,2,12.4,5.84,5458,6914,inactive
Asap,1,1.07,18.8,6366,5902,inactive
Asap,2,3.7,11.3,5912,6039,inactive
Jon99Fii + Jon99Cii + Jon99Ciii + 1 more,1,,,298,278,inactive
mRpS24,1,15.6,6.27,2071,1197,inactive
TwdlN,1,1.31,3.69,6575,6524,inactive
TBPH,1,11.3,0.78,5824,385,inactive
TBPH,2,9.94,17.8,2877,4094,inactive
TMEM216,1,1.58,8.74,5878,6110,inactive
TMEM216,2,6.53,7.14,245,6584,inactive
